Values from PubChem BioAssay AID1259414 (Drosophila RNAi Screening Center, 2018)

- Test: 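Genome-wide screen for host control of endosymbiont load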 (primary screen)
- Cells: Drosophila JW18 cells infected with Wolbachia
- Reagents: long dsRNA against Drosophila genes, 0.25 µg dsRNA per well of a 384-well plate
- Duration: 5 days
- Treatment: cells persistently infected with Wolbachia before knock-down; no added drug
- Read-out: 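Imaged fluorescence in situ signal for Wolbachia 23S rRNA per DAPI-counted host cell, given as a robust z-score within each plate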
- Direction: Wolbachia per cell robust z: higher = more Wolbachia per host cell than the plate typical
- Rule for the call: 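Active if absolute robust z reaches 1.5 in two or more of three replicates, leaving out multi- or no-target dsRNAs, genes unexpressed in JW18 and A1 wells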
The deposit covers about 24,000 reagents; this is a random part of those with a known target gene and a result. Of all reagents, about 1,210 (5%) got an active call. 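Inactive calls also include excluded dsRNAs with several or no targets, genes unexpressed in JW18, and well A1, regardless of score.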 A number with no mark means an inactive call. Names joined by + are all predicted targets of the reagent. Reagent sequences are not shown.

gene knocked down | amplicon | Wolbachia per cell robust z, rep 1 | Wolbachia per cell robust z, rep 2 | Wolbachia per cell robust z, rep 3
sqz (squeeze) | DRSC16980 | -1.53 (active) | -0.225 | -1.99
sqz (squeeze) | DRSC28971 | 0.274 | -1.35 | -6.29
snoRNA:Me18S-G1620 + snoRNA:U14:30Ea + Uhg2 | DRSC01100 | -0.294 | -0.668 | -0.272
Sfp24Bd (Seminal fluid protein 24Bd) | DRSC40637 | -3.41 | -0.356 | -1.56
MME1 (Mitochondrial Magnesium Exporter 1) | DRSC02714 | -0.819 | 0.0834 | -0.86
Syt7 (Synaptotagmin 7) | DRSC17130 | 0.947 | 0.863 | -0.666
Syt7 (Synaptotagmin 7) | DRSC17159 | -1.02 | -0.992 | -2.92
Marf1 (Meiosis regulator and mRNA stability factor 1) | DRSC03747 | 0.77 | 0.964 | 1.67
Marf1 (Meiosis regulator and mRNA stability factor 1) | DRSC03774 | 0.259 | 0.93 | 1
Gnptab | DRSC07057 | -3.14 | 0.108 | -0.483
CG30485 | DRSC06376 | 0.584 | 0.625 | -0.28
CG2617 | DRSC02712 | -1.24 | 1.31 | 1.32
CG2617 | DRSC24947 | 0.765 | -0.33 | 0.516
OstDelta (Oligosaccharide transferase Delta subunit) | DRSC06980 | 0.48 | -1.2 | -0.743
OstDelta (Oligosaccharide transferase Delta subunit) | DRSC27205 | -0.927 | -1.22 | -0.618
Spn38F (Serpin 38F) | DRSC03616 | 2.17 | -0.665 | 0.858
Spn38F (Serpin 38F) | DRSC24629 | -0.865 | 0.193 | -0.0917
Spn38F (Serpin 38F) | DRSC40870 | 1.11 | 0.383 | 0.856
mRpL27 (mitochondrial ribosomal protein L27) | DRSC22568 | -0.293 | -0.925 | -0.155
SmydA-1 (SET and MYND domain containing, arthropod-specific, member 1) | DRSC07200 | -1.71 (active) | 0.275 | -1.62
Ugt35D1 (UDP-glycosyltransferase family 35 member D1) | DRSC15107 | 0.146 | -0.424 | 1.33
hoe1 (hoepel1) | DRSC00265 | -0.725 | 0.799 | 0.0268
hoe1 (hoepel1) | DRSC00333 | -0.00458 | -0.445 | -1.36
hoe1 (hoepel1) | DRSC00353 | -0.246 | -1.31 | -0.29
Art3 (Arginine methyltransferase 3) | DRSC16065 | -0.0785 | -0.229 | 1.24
CAH1 + Adat1 | DRSC02009 | 1.22 | -0.242 | -0.133
COX5A (Cytochrome c oxidase subunit 5A) | DRSC16611 | 0.988 | 1.15 | 0.959

Next part (6 carried over from the part before).
gene knocked down | amplicon | Wolbachia per cell robust z, rep 1 | Wolbachia per cell robust z, rep 2 | Wolbachia per cell robust z, rep 3
hoe1 (hoepel1) | DRSC00265 | -0.725 | 0.799 | 0.0268
hoe1 (hoepel1) | DRSC00333 | -0.00458 | -0.445 | -1.36
hoe1 (hoepel1) | DRSC00353 | -0.246 | -1.31 | -0.29
Art3 (Arginine methyltransferase 3) | DRSC16065 | -0.0785 | -0.229 | 1.24
CAH1 + Adat1 | DRSC02009 | 1.22 | -0.242 | -0.133
COX5A (Cytochrome c oxidase subunit 5A) | DRSC16611 | 0.988 | 1.15 | 0.959
CG34216 | DRSC38631 | -0.693 | -4.4 | -7.11
CG9289 | DRSC03187 | 0.0456 | -2.64 | -1.48
CG9289 | DRSC28115 | -0.149 | -0.345 | -0.187
CG13305 | DRSC24957 | -0.127 | 0.52 | 0.821
tup (tailup) | DRSC03627 | -1.08 | 0.792 | -5.09
tup (tailup) | DRSC23978 | -0.477 | -0.294 | 0.881
Gr10b (Gustatory receptor 10b) | DRSC19477 | 0.901 | 0.327 | 0.606
Gr10b (Gustatory receptor 10b) | DRSC28702 | -0.169 | 0.595 | 0.314
CG14929 + CG14930 | DRSC02412 | 1.32 | -0.266 | -0.0172
thr (three rows) | DRSC07706 | 1.47 (active) | 2.23 | 3.91
a5 (antennal protein 5) | DRSC00798 | 1.17 | 0.862 | -0.448
His2A:CG33835 + sncRNA:430f + sncRNA:430a + 37 more | DRSC21264 | 0.23 | 1.65 | 0.707
TppII (Tripeptidyl-peptidase II) | DRSC07565 | 0.644 | -0.135 | 0.141
CG6726 | DRSC16101 | 0.829 | -1.09 | 0.709
CG6726 | DRSC28130 | 1.02 | -1.03 | 0.00569
CG11251 | DRSC09825 | -0.931 | 0.43 | -0.168
Or98a (Odorant receptor 98a) | DRSC16774 | -0.1 | -1.95 | -0.374
Or98a (Odorant receptor 98a) | DRSC26173 | 0.54 | -1.9 | 0.142
Pex11c (Peroxin 11c) | DRSC14677 | -0.613 | -2.39 | -0.53
